Source: article PMC6691772, “Novel phthalimide based analogues: design, synthesis, biological evaluation, and molecular docking studies” (Journal of Enzyme Inhibition and Medicinal Chemistry, 2019)
≈ marks a conversion by molar mass, not a printed value.

Experiments:
B. subtilis RCMB 010067 [1] = assay: Agar well diffusion, inhibition zone; type: cell-based, Bacillus subtilis; conditions: 1 mg/mL, mean of three values
[2] = tested on: P. aeruginosa RCMB 010043; assay: Agar well diffusion, inhibition zone; type: cell-based, Pseudomonas aeruginosa; conditions: 1 mg/mL, mean of three values
B. subtilis RCMB 010067 [3] = assay: Minimum inhibitory concentration, modified agar well diffusion; type: cell-based, Bacillus subtilis; conditions: mean of three values
S. pneumonia RCMB 010010 [4] = assay: Agar well diffusion, inhibition zone; type: cell-based, Streptococcus pneumoniae; conditions: 1 mg/mL, mean of three values
S. pneumonia RCMB 010010 [5] = assay: Minimum inhibitory concentration, modified agar well diffusion; type: cell-based, Streptococcus pneumoniae; conditions: mean of three values
E. coli RCMB 010052 = assay: Agar well diffusion, inhibition zone; type: cell-based, Escherichia coli; conditions: 1 mg/mL, mean of three values

C[C@@H]1[C@H](O)[C@@H](C)/C=C/C=C/C=C/C=C/C=C/C=C/C=C/[C@H](O[C@@H]2O[C@H](C)[C@@H](O)[C@H](N)[C@@H]2O)C[C@@H]2O[C@](O)(C[C@@H](O)C[C@@H](O)[C@H](O)CC[C@@H](O)C[C@@H](O)CC(=O)O[C@H]1C)C[C@H](O)[C@H]2C(=O)O
Mean diameter of inhibition zone (Mean ± SEM) (B. subtilis RCMB 010067 [1]): –
Mean diameter of inhibition zone (Mean ± SEM) [2]: –
MIC (Mean ± SEM) (B. subtilis RCMB 010067 [3]): 0.49 ± 0.36 µg/mL (≈ 0.53 µM)
Mean diameter of inhibition zone (Mean ± SEM) (S. pneumonia RCMB 010010 [4]): –
MIC (Mean ± SEM) (S. pneumonia RCMB 010010 [5]): 0.98 ± 0.47 µg/mL (≈ 1.06 µM)
Mean diameter of inhibition zone (Mean ± SEM) (E. coli RCMB 010052): –
